A mixed list of measured activities; the numbers were collected in NIAID ChemDB.

Common to all: tests in culture; agent: Candida albicans; read-out: MIC

An empty or dashed field is not shown. Lines come from different laboratories, so protocols vary.

smiles | strain or isolate | read by | setting | result
COc1cc(O)c2c(c1)C(=O)c1c(cc3c(c1O)-c1c(cc(C)c(C(=O)NC(C)C(=O)O)c1O)[C@H](OC1OC(C)C(N(CC(=O)O)CC(=O)O)C(OC4OCC(O)C(O)C4O)C1O)[C@H]3O)C2=O | A9540 |  |  | 50 µg/mL
c1nc2ncc3c(n2n1)CCCCCC3 |  |  |  | 25 µg/mL
COc1cc(O)c2c(c1)C(=O)c1c(cc3c(c1O)-c1c(cc(C)c(C(=O)NC(C)C(=O)O)c1O)[C@H](OC1OC(C)C(N(C)C(=O)CCC(=O)O)C(OC4OCC(O)C(O)C4O)C1O)[C@H]3O)C2=O | A9540 |  |  | >100 µg/mL
Clc1ccc(CO/N=C2/c3ccc(Cl)cc3OCC2n2cncn2)cc1 | ATCC 10231 |  |  | 32 µg/mL
Cc1ccc(SC[C@@H]2C[C@](c3ccc(F)cc3)(n3ccnc3)N(C)O2)cc1 | ATCC10259 |  |  | 7 µg/mL
COc1ccc(-c2oc3cc(OC)cc(O)c3c(=O)c2OC)cc1 | ATCC 10231 |  |  | 12.5 µg/mL
O=C(N/N=C(\COc1ccccc1)N=Cc1cccnc1)c1ccncc1 | ATCC E10231 |  |  | >100 µg/mL
COc1cc(O)c2c(=O)c(OC)c(-c3ccc(OC)c(OC)c3)oc2c1 | ATCC 10231 |  |  | 12.5 µg/mL
N/C(COc1ccc(Cl)cc1)=N/NC(=O)c1ccncc1 | ATCC E10231 |  |  | >100 µg/mL
Clc1ccc(CO/N=C2/c3ccc(Cl)cc3OCC2n2cnnc2)c(Cl)c1 | ATCC 10231 |  |  | 64 µg/mL
Oc1ccc(C(=S)n2nnnc2-c2ccc(Cl)cc2)c(O)c1 | ATCC 10231 |  |  | 25 µg/mL
C[C@@H](c1nc(-c2ccc(C#N)cc2)cs1)[C@](O)(Cn1cnnc1)c1ccc(F)cc1F | A28235 |  |  | ≤0.007 µg/mL
Cc1ccc(C(C)C)c(O)c1 | ATCC10259 | broth dilution |  | 93000 µg/mL
COc1ccc(OC/C(=N/O)c2ccccc2)cc1 | ATCC 10231 | broth dilution | 48 h | >125 µg/mL
Cc1ccc(SC[C@@H]2C[C@](c3ccc(Cl)cc3)(n3ccnc3)N(C)O2)cc1 | ATCC10259 |  |  | 7 µg/mL
Clc1ccc(C(Cn2ccnc2)OCc2cccc3ccccc23)c(Cl)c1 | CA12 |  |  | 2 µg/mL
CCCCCCCCCCCC1=NCCN1C(=S)c1ccc(O)cc1O | 10 isolates |  |  | 25 µg/mL
CCC(C)CCCCCC(C)CCCCCCC(C)OC1C(=O)c2c(O)cc(O)cc2OC1c1ccc(O)cc1 |  |  |  | 250 µg/mL
CC(C)(C)c1ccc(COC(Cn2ccnc2)c2ccc(Cl)cc2)cc1 | CA6 |  |  | >128 µg/mL
CCOC(=O)Cc1nnnn1C(=S)c1ccc(O)cc1O | ATCC 10231 |  |  | 50 µg/mL
Clc1ccc(CO/N=C2/c3ccccc3OCC2n2cnnc2)cc1 | ATCC 10231 |  |  | 32 µg/mL
CCCCCCCCCCCCCC(O)CC(O)C(N)CC(=O)CC(C)C(N)C(=O)NC(C=O)CO |  |  |  | 3.12 µg/mL
CS(=O)(=O)c1nnc(Cc2cc([N+](=O)[O-])ccc2-c2ncc[nH]2)s1 | ATCC 10231 |  |  | 0.39 µg/mL
Cc1ccc(OC/C(N)=N\NC(=O)c2ccncc2)cc1 | ATCC E10231 |  |  | >100 µg/mL
CCCCCOc1ccc(-c2cc(-c3ccc(C(=O)N[C@H]4C[C@@H](O)[C@@H](O)NC(=O)[C@@H]5[C@@H](O)[C@@H](C)CN5C(=O)[C@H]([C@H](O)CC(N)=O)NC(=O)[C@H]([C@H](O)[C@@H](O)c5ccc(O)c(OS(=O)(=O)O)c5)NC(=O)[C@@H]5C[C@@H](O)CN5C(=O)[C@H]([C@@H](C)O)NC4=O)cc3)no2)cc1 | FP633 | broth dilution |  | 0.78 µg/mL
c1noc2c1CCCCCC2 |  |  |  | 25 µg/mL
CC[C@H]1O[C@]2(CC[C@@H]1C)CC1C[C@@H](C/C=C(\C)C[C@@H](C)/C=C/C=C3\CO[C@@H]4/C(=N\O)C(C)=C[C@@H](C(=O)O1)[C@]34O)O2 | SC5314 | broth dilution / agar diffusion |  | 25.6 µg/mL
Cc1ccc(C(Cn2ccnc2)OC/C=C/c2ccccc2)cc1 | CA7 |  |  | 128 µg/mL
CCCS(=O)(=O)c1nnc(Cc2cc([N+](=O)[O-])ccc2-c2ncc[nH]2)s1 | ATCC 10231 |  |  | 6.25 µg/mL
COc1cccc(OC/C(N)=N\NC(=O)c2ccncc2)c1 | ATCC E10231 |  |  | >100 µg/mL
CCC/C=C/C=C/C=C/C(=O)OCC1O[C@@H](OC2C(CO)O[C@]3(OCc4cc(O)cc(O)c43)[C@H](O)[C@H]2OC(=O)/C=C/C=C/CC(O)/C=C/C=C/C=C/CCC)[C@H](O)[C@@H](O)[C@H]1O | ATCC 32354 |  |  | 0.2 µg/mL
CCOC(=O)Cc1csc(NC(=O)CCl)n1 | ATCC 10231 |  |  | 156 µg/mL
Cc1ccccc1OC/C(N)=N\NC(=O)c1ccncc1 | ATCC E10231 |  |  | >100 µg/mL
CC1=C[C@@]2(C)C(=O)OC3C[C@@H](C/C=C(\C)C[C@@H](C)/C=C/C=C4\CO[C@H](C1O)[C@@]42O)O[C@@]1(CC[C@H](C)[C@@H](C)O1)C3 | SC5314 | broth dilution / agar diffusion |  | 6.4 µg/mL
COc1ccccc1OC/C(=N/O)c1ccccc1 | ATCC 10231 | broth dilution | 48 h | >125 µg/mL
Cc1c(O)cccc1C(=O)N[C@@H](CSc1ccccc1)[C@H](O)CN1C[C@H]2CCCC[C@H]2C[C@H]1C(=O)NC(C)(C)C | I96A |  |  | 64 µg/mL
Cc1ccc(C(Cn2ccnc2)OCc2ccc(C(C)(C)C)cc2)cc1 | CA6 |  |  | 64 µg/mL
Clc1ccc2c(c1)OCC(n1cnnc1)/C2=N\OCc1ccccc1 | ATCC 10231 |  |  | 64 µg/mL
CCCCCCCCCCCCCCCC(=O)NC1CC(O)C(O)NC(=O)C2C(O)C(CO)CN2C(=O)C(CCC(N)=O)NC(=O)C(C(O)C(O)c2ccc(O)cc2)NC(=O)C2CC(O)CN2C(=O)C(C(C)O)NC1=O |  |  |  | 0.03 µg/mL
COC1=CC(=O)C[C@@H](C)[C@]12Oc1c(Cl)c(OC)cc(OC)c1C2=O |  | broth dilution |  | 6 µg/mL
CCSc1nnc(-c2ccccc2[N+](=O)[O-])s1 | ATCC 10231 |  |  | >100 µg/mL
COc1ccccc1OCC(=O)c1ccccc1 | ATCC 10231 | broth dilution | 48 h | >125 µg/mL
Clc1ccc(C(Cn2ccnc2)OCc2ccc(-c3ccccc3)cc2)cc1 | CDCB385 |  |  | 128 µg/mL
CC(C)CCCCCCCCC1CC(=O)NCC(=O)N[C@@H](CCCN)C(=O)N[C@@H](C(C)C)C(=O)N1 | ATCC 10231 |  |  | 2.5 µg/mL
COc1cc(O)c2c(c1)C(=O)c1c(cc3c(c1O)-c1c(cc(C)c(C(=O)NC(C)C(=O)O)c1O)[C@H](OC1OC(C)C(N(C)C=O)C(OC4OCC(O)C(O)C4O)C1O)[C@H]3O)C2=O | A9540 |  |  | 3.1 µg/mL
NC[C@H]1O[C@H](O[C@H]2[C@H](O)[C@@H](O[C@H]3O[C@H](CO)[C@@H](O)[C@H](N)[C@H]3O)[C@H](N)C[C@@H]2N)[C@H](O)[C@@H](O)[C@@H]1O |  | MTT / broth dilution |  | >50 µg/mL
Clc1ccc(CO/N=C2\c3ccccc3OCC2n2cncn2)cc1 | ATCC 10231 |  |  | 8 µg/mL
CC1C(=O)CC2C(C)(C)CCC[C@]2(C)C1(O)CCc1ccco1 | ATCC 10231 |  |  | 12.5 µg/mL
CC(=O)N1CCN(c2ccc(OC[C@@H]3CO[C@@](Cn4ccnc4)(c4ccc5c(c4)SCC(=O)N5C)O3)cc2)CC1 |  |  |  | 62.5 µg/mL
Clc1ccc(CO/N=C2/c3ccccc3OCC2n2cnnc2)c(Cl)c1 | ATCC 10231 |  |  | 64 µg/mL
CCN(CC)c1ccc(/C=N/NC(=O)c2ccccc2F)c(O)c1 |  | MTT / broth dilution |  | >50 µg/mL
CCC(C)CCCCCCCCC1CC(=O)NCC(=O)N[C@@H](CCCN)C(=O)N[C@@H](C(C)C)C(=O)N1 | IFM 40009 |  |  | 1.25 µg/mL
O/N=C(/COc1ccc(F)cc1)c1ccccc1 | ATCC 10231 | broth dilution | 24 h | 31.25 µg/mL
C[C@]12CC[C@H](O)CC1=CCC1=C2CC[C@]2(C)CCCC12 | IP 1180.79 |  |  | >250 µM
COc1cc(OCC(=O)c2ccccc2)cc(OC)c1OC | ATCC 10231 | broth dilution | 24 h | >125 µg/mL
OC(c1cc(-c2ccc(C(F)(F)F)cc2)nc(-c2ccc(C(F)(F)F)cc2)c1)C1CCCCN1 | ATCC 90028 |  |  | 0.4 µg/mL
CC1OC(O[C@@]2(C)CC(=O)[C@]3(O)C4=C(C=C[C@]3(O)C2)C(=O)c2c(ccc(C3CCC(OC5CCC(O)C(C)O5)C(C)O3)c2O)C4=O)C=CC1=O | 6 strains |  |  | 95 µg/mL
Clc1ccc2c(c1)OCC(n1cncn1)/C2=N\OCc1ccc(Cl)c(Cl)c1 | ATCC 10231 |  |  | 16 µg/mL
Clc1ccc(C(Cn2ccnc2)OC/C=C/c2ccccc2)cc1 | CA6 |  |  | >128 µg/mL
N/C(COc1cccc(Cl)c1)=N/NC(=O)c1ccncc1 | ATCC E10231 |  |  | >100 µg/mL
c1ccc(CO/N=C2\c3ccccc3OCC2n2cncn2)cc1 | ATCC 10231 |  |  | 16 µg/mL
COc1cc2cc(C(=O)N3CC4CC45C3=CC(=O)C3=C5C=C(C(=O)N4CCc5c4c(O)c(OC)c4[nH]c(SC(C)=O)cc54)C3)[nH]c2cc1O | ATCC 90018 |  |  | 0.0078 µg/mL
COc1ccc(SC[C@@H]2C[C@](c3cccc(OC)c3)(n3ccnc3)N(C)O2)cc1 | ATCC10259 |  |  | 7 µg/mL
O/N=C(/COc1cccc(F)c1)c1ccccc1 | ATCC 10231 | broth dilution | 24 h | >125 µg/mL
Clc1ccc(CO/N=C2/c3ccccc3OCC2n2cncn2)cc1 | ATCC 10231 |  |  | 16 µg/mL

A second listing of 8 rows from above:

CCCS(=O)(=O)c1nnc(Cc2cc([N+](=O)[O-])ccc2-c2ncc[nH]2)s1 ; strain or isolate: ATCC 10231 ; result: 6.25 µg/mL
C[C@@H](c1nc(-c2ccc(C#N)cc2)cs1)[C@](O)(Cn1cnnc1)c1ccc(F)cc1F ; strain or isolate: A28235 ; result: ≤0.007 µg/mL
CCC/C=C/C=C/C=C/C(=O)OCC1O[C@@H](OC2C(CO)O[C@]3(OCc4cc(O)cc(O)c43)[C@H](O)[C@H]2OC(=O)/C=C/C=C/CC(O)/C=C/C=C/C=C/CCC)[C@H](O)[C@@H](O)[C@H]1O ; strain or isolate: ATCC 32354 ; result: 0.2 µg/mL
CC(=O)N1CCN(c2ccc(OC[C@@H]3CO[C@@](Cn4ccnc4)(c4ccc5c(c4)SCC(=O)N5C)O3)cc2)CC1 ; result: 62.5 µg/mL
OC(c1cc(-c2ccc(C(F)(F)F)cc2)nc(-c2ccc(C(F)(F)F)cc2)c1)C1CCCCN1 ; strain or isolate: ATCC 90028 ; result: 0.4 µg/mL
CCC(C)CCCCCCCCC1CC(=O)NCC(=O)N[C@@H](CCCN)C(=O)N[C@@H](C(C)C)C(=O)N1 ; strain or isolate: IFM 40009 ; result: 1.25 µg/mL
N/C(COc1ccc(Cl)cc1)=N/NC(=O)c1ccncc1 ; strain or isolate: ATCC E10231 ; result: >100 µg/mL
Cc1ccc(C(C)C)c(O)c1 ; strain or isolate: ATCC10259 ; read by: broth dilution ; result: 93000 µg/mL